Source: patent US20090076067A1, “PHARMACEUTICAL COMPOSITION COMPRISING AZARHODACYANINE COMPOUND AS ACTIVE INGREDIENT” (priority 2005, published 2009)

Legend:
Type in all cases: cell-based
[1] = test system: Plasmodium Falciparum k1 strain; experiment: Chloroquine-resistant tropical malaria protozoa proliferation inhibition screening test; conditions: EC50 rat L6 cells / EC50 Chloroquine-resistant malaria protozoa
Method: In this experiment, Plasmodium Falciparum k1 strain protozoa were used. The medium used in the experiment was filter-sterilized RPMI-1640 medium. To the medium human serum was added to achieve 5% concentration. The protozoa was cultured under condition of O2 concentration 3%, CO2 concentration 4%, N2 concentration 93%, and temperature 37° C.
The cultured malaria infected red blood cells were collected by centrifugation, diluted with non-infected red blood cells, to achieve initial infection rate 0.15%. The hematocrit was 2.5%.
To each well in a 96-well culture plate, 200 μL malaria infected culture was added, and either test solution containing test compound at predefined concentration or DMSO having no test compound was added. Each test solution was prepared in duplicate. After 48 hours culture under 37° C., hypoxanthine labeled with radioactive tritium (^3H) of 0.5 μCi was added to each well. After culturing under same condition for 24 hours, the product was collected on a glass fiber filter and washed. The intensity of radiation was measured by Beta plate liquid scintillation counter (Wallac Inc.), to determine malaria protozoa infection rate in test compound samples and control samples.
Using the malaria protozoa infection rate, the proliferation inhibition rate was calculated according to the following equation to determine 50% proliferation inhibition concentration (EC50).
Proliferation inhibition rate(%)={1−(b−a)/(c−a)}×100
a: initial infection rate b: infection rate of test compound solution c: infection rate of the control

[2] = test system: Trypanosoma brucei rhodensiense (STIB 900 strain); experiment: African trypanosoma protozoa proliferation inhibition screening test; conditions: EC50 rat L6 cells / EC50 African trypanosoma protozoa
Method: In this experiment, bloodstream form trypomastigote of Trypanosoma brucei rhodensiense (STIB 900 strain) was used. The medium used in the experiment was prepared as follows: to filter-sterilized MEM medium, 25 mM N-2-hydroxyethylpiperazine-2-ethane sulfonate (HEPES), 1 g/L glucose, 1% MEM nonessential amino acid, 0.2 mM 2-mercaptoethanol, 2 mM pyruvic calcium salt, 0.1 mM hypoxanthine, and 15% heat-treated horse serum were added. The protozoa was cultured under atmosphere of CO2 concentration 5% and temperature 37° C.
Either the compound of the invention or a positive control (melarsoprol) was dissolved into dimethylsulfoxide (DMSO) to prepare test solution having predefined concentration. To each well in a 96-well culture plate, medium containing 8×10^3 protozoa, and either test solution containing the test compound at predefined concentration or DMSO without compound was added. […]
(§1) The culture plate was cultured in an incubator for 72 hours, and the proliferation inhibition activity was examined. The activity was determined as follows. […] Then the culture plate was mounted on a fluorescence microplate reader (Spectramax Gemeni XS; Molecular Devices Corporation, U.S.), and irradiated with 536 nm excitation wavelength to determine fluorescence at 588 nm. The trypanosoma infection rate of the sample containing the test composition and that of the control sample was calculated. […]

[3] = test system: Leishmania donovani (MHOM/ET/67/L82 strain); experiment: Leishmania protozoa proliferation inhibition screening test; conditions: EC50 rat L6 cells / EC50 leishmania protozoa
Method: In this experiment, Leishmania donovani (MHOM/ET/67/L82 strain) was used. The protozoa were successively cultured in Syrian Golden hamsters to obtain amastigote. The medium used in the experiment was SM medium having heat-treated fetal bovine serum 10% added, and pH prepared to 5.4. The culture was conducted under CO2 concentration 5% and temperature 37° C.
Either the compound of the invention or a positive control (miltefosine) was dissolved into DMSO to prepare test solution having predefined concentration. To each well of a 96-well culture plate, medium containing predetermined number of protozoa was added and the culture was pre-treated. The concentration of amastigote was determined by CASY cell analyze system (Scharfe GMBH Co., Germany). Subsequently, either test solution containing compound of the invention in predefined concentration or DMSO without compound was added. The test solution was duplicated.
as §1, with “The” for “The culture”, “Corporation, U.S),” for “Corporation, U.S.),”, “irradiated” for “irradiated with”, “determine […]” for “determine fluorescence”, “The leishmania” for “The trypanosoma”, “test compound” for “test composition”

Compound `CCN1C(=O)/C(=c2/s/c(=C3/C=CC=CN3C)c(=O)n2CC)S/C1=N\c1sc2cc(OC)ccc2[n+]1C` [Compound B-28] has a Selective toxicity [1] of 715, a Selective toxicity [2] of 119 and a Selective toxicity [3] of 135.
`C=CCN1C(=O)/C(=c2/s/c(=C3/C=CC=CN3C)c(=O)n2CC)S/C1=N\c1scc[n+]1C` [Compound B-40] gave a Selective toxicity [1] of 2282.
For `CCN1C(=O)/C(=C/C=C2\Sc3ccccc3N2C)S/C1=N\c1sc2cc(Cl)ccc2[n+]1C` [Compound C-2], the Selective toxicity [1] was 454.
`CCN1C(=O)/C(=c2/s/c(=C3/C=CC=CN3C)c(=O)n2CC)S/C1=N\c1scc[n+]1C` [Compound B-19] gave a Selective toxicity [1] of 1628.
Compound `CCN1C(=O)/C(=c2/s/c(=C3/SCCN3C)c(=O)n2CC)S/C1=N\c1sc2cc(OC)ccc2[n+]1C` [Compound B-29] has a Selective toxicity [1] of 330, a Selective toxicity [2] of 86 and a Selective toxicity [3] of over 49.
